From PubChem BioAssay AID1259415 (National Center for Advancing Translational Sciences (NCATS), 2018)
Only a part is listed here, and it is no random draw. Inconclusive results are not listed. Calls of active or inactive are those of the source. Rule as the data show it: active = activity change below about -60%; inconclusive = no clear call, values can overlap the other calls; inactive = above about -39%.

assay: qHTS Assay for inhibitors of the human cytomegalovirus (HCMV); details: HFF cells, HCMV-luciferase reporter, 72 h; at 57.5 µM; stronger effect = lower value
Text: NCGC Assay Overview: Infection with human cytomegalovirus (HCMV) continues to pose significant threats for pregnant women and immunocompromised hosts. HCMV causes serious morbidity and mortality in transplant recipients, and congenital HCMV is the leading infectious cause of mental retardation and deafness in children. In the 1990s, the annual costs associated with the disease burden of congenital CMV were estimated at around $2 billion. A HCMV vaccine is not available yet and HCMV therapies result in intolerable side effects and emergence of drug resistant viruses. […] Towards this goal we have developed and characterized a luciferase HCMV reporter that was initially used in 96 well plates and then optimized to 1536-well plates for utilization in screening of the MLSMR collection, the NGCG diversity collection and the NCGC Pharmaceutical Collection of approved and investigational drugs.
NCGC Assay Protocol Summary:
This is a cell-based assay for HCMV inhibition in HFFs cells. The screening used 2 compound doses and the HCMV-luciferase at MOI of 1 PFU/cell. Cells were treated and infected with HCMV. At 72 h post infection cell lysates were collected and luciferase activity was determined using the Glomax-Multi + Detection System (Promega, Madison, WI). Data were normalized to the controls for basal activity (buffer only) and known HCMV inhibitors Salinmoycin.
1536-well assay protocol for the assay:
(1) Add 3 ul CMV/HFF cell culture. 1000 cells/well in DMEM nirmal media.
(2) Incubate 16 hr at 37C.
(3) Add 23 nl control compound, 10uM of Salinomycin.
(4) Add 23 nl compounds in DMSO solution.
(5) Add 3 ul CMV suspension. Final 1 puf/ul, Virus stock 2000pfu/ul
(6) Incubate 72 hrs at 37C.
(7) Add 4 ul OneGlo Luc Reagent.
(8) Incubate 5 min at room temperature.
% is scaled to controls: 0 for no effect and ±100 for the full control effect.

Row | Structure (SMILES) | activity change, negative = inhibition
1 | O=C(OC1CN2CCC1CC2)c1ccccc1 (stereo unspecified) | inactive: -33.3%
2 | CCC(=O)N1C2C3N(C(=O)CC)C1C1N(C(=O)CC)C(C(N1C(=O)CC)N3C(=O)CC)N2C(=O)CC | inactive: -11.4%
3 | COC(=O)c1cc2c(s1)N=C(c1ccccc1)N(C)P2(=O)N1CCOCC1 (stereo unspecified) | inactive: -24.9%
4 | Cc1ccc(OP(=O)(Nc2ccccn2)Oc2ccc(C)cc2)cc1 | active: -78.1%
5 | Cc1ccccc1OP(=O)(Nc1ccccn1)Oc1ccccc1C | inactive: -33%
6 | CC(NC(=O)COC(=O)C(O)(c1ccccc1)c1ccccc1)c1ccccc1 (stereo unspecified) | inactive: 1.11%
7 | CN(C)C(=O)Oc1noc2ccccc12 | inactive: -21.8%
8 | O=c1c2cc([N+](=O)[O-])ccc2[nH]c2c([N+](=O)[O-])cc([N+](=O)[O-])cc12 | inactive: -22.9%
9 | c1ccc(-c2nn[nH]n2)c(-c2nn[nH]n2)c1 | inactive: -22.9%
10 | Cc1ccc(NP(=O)(Oc2cccc(C)c2)Oc2cccc(C)c2)nc1 | inactive: -14.6%
11 | CCNC(=S)/N=C(\N)N[N+](=O)[O-] | inactive: -0.597%
12 | O=C(NC1CCS(=O)(=O)C1)NP(=S)(Oc1ccccc1)Oc1ccccc1 (stereo unspecified) | inactive: -4.15%
13 | O=P1(N(CCCl)CCCl)OCCC2CCCCN21 (stereo unspecified) | inactive: -19.6%
14 | Cc1ccccc1CN(C)C(=O)COC(=O)C(O)(c1ccccc1)c1ccccc1 | inactive: 47.1%
15 | C[C@@H]1C=CCP(=O)(Oc2ccccc2)O1 (stereo partly specified) | inactive: -21.6%
16 | C[C@H]1OP(=O)(Oc2ccccc2)C[C@@H]2O[C@@H]21 (stereo partly specified) | inactive: 1.74%
17 | CC(=O)c1ccc(N2CC2c2ccncc2)cc1 (stereo unspecified) | inactive: 28%
18 | COC(=O)C1(C)COP(=O)(NCc2ccccc2)OC1 (stereo unspecified) | inactive: -0.501%
19 | CC(=O)Nc1ccc([As](=O)(O)O)c(O)c1 | inactive: 3.1%
20 | CC(=O)Nc1ccc(Oc2c([N+](=O)[O-])cc([N+](=O)[O-])cc2[N+](=O)[O-])cc1 | inactive: 16.9%
21 | O=P1(Nc2nc3ccc(Cl)cc3s2)COc2ccccc2O1 (stereo unspecified) | inactive: 88.3%
22 | CCOc1ccc(C2=NCC(CBr)S2)cc1 (stereo unspecified) | inactive: 4.35%
23 | CC(C)(C)C(=O)NC(Sc1ccccc1)C(Cl)(Cl)Cl (stereo unspecified) | inactive: -14.3%
24 | CCc1cc(O)c([N+](=O)[O-])c(C)c1[N+](=O)[O-] | inactive: 15.3%
25 | CC(C)C(=O)NC(Sc1ccccc1)C(Cl)(Cl)Cl (stereo unspecified) | inactive: 18.6%
26 | O=P(Nc1nccs1)(c1ccccc1)c1ccccc1 | inactive: 11.8%

Row | Structure (SMILES) | activity change, negative = inhibition
27 | c1nnnn1CCn1cnnn1 | inactive: -7.89%
28 | O=C(OC1CN2CCC1CC2)c1cccc(Cl)c1 (stereo unspecified) | inactive: 19.9%
29 | C/C(N)=N\P(=O)(OCc1ccccc1)OCc1ccccc1 | inactive: -12.9%
30 | Nc1ccc([As](=O)(O)c2ccc([N+](=O)[O-])cc2)cc1 | inactive: 0%
31 | C(Cc1nn[nH]n1)Cc1nn[nH]n1 | inactive: 6.52%
32 | O=P(Nc1ccccn1)(c1ccc(Br)cc1)c1ccc(Br)cc1 | inactive: -6.41%
33 | CN(C)C1(CNC(=O)c2ccc(Cl)c(S(N)(=O)=O)c2)CCCCC1 | inactive: 0.953%
34 | Nc1ccc(CCCCOc2ccccc2)cc1 | inactive: 6.03%
35 | COc1ccc(N)c([N+](=O)[O-])c1[N+](=O)[O-] | inactive: -4.13%
36 | O=P(Nc1nc2ccccc2s1)(c1ccccc1)c1ccccc1 | inactive: 0%
37 | C[C@H]1OP(=O)(Oc2ccccc2)[C@H](O)[C@H](O)[C@H]1N=[N+]=[N-] (stereo partly specified) | inactive: 4.25%
38 | O=[N+]([O-])c1ncn(CCn2ncnc2[N+](=O)[O-])n1 | inactive: 8.73%
39 | CC(C)(C)C(=O)NC(Sc1ccncn1)C(Cl)(Cl)Cl (stereo unspecified) | inactive: 34.6%
40 | O=C(O)CNc1ccc([As](=O)(O)O)cc1 | inactive: -30%
41 | O=[N+]([O-])c1cccc(NC2=NCC(CBr)S2)c1 (stereo unspecified) | inactive: 8.69%
42 | COC(=O)C1(C)COP(=O)(Nc2ccccc2)OC1 (stereo unspecified) | inactive: 21.8%
43 | O=P1(N(CCCl)CCCl)OCCCS1 (stereo unspecified) | inactive: 3.97%
44 | O=C(Nc1cc([As](=O)(O)O)ccc1O)c1ccccc1 | active: -101%
45 | CCN(/C(=N/P(=O)(N1CCOCC1)N1CCOCC1)N1CCOCC1)c1ccc(OC)cc1 | inactive: -0.947%
46 | Nc1ccc([As](=O)(O)c2ccc(N)cc2)cc1 | inactive: -17.8%
47 | C[N+]1=C2C=CC=CC=C2SC12C([N+](=O)[O-])=CC([N+](=O)[O-])=C[C-]2[N+](=O)[O-] (stereo unspecified) | active: -100%
48 | c1cc(-c2nn[nH]n2)ccc1-c1nn[nH]n1 | inactive: -36.5%
49 | CC1CCN(C(=O)Oc2c(Cl)cc(Cl)c3cccnc23)CC1 | inactive: 7.7%
50 | CC(C)=N/N=C(\N)N[N+](=O)[O-] | inactive: 3.23%
51 | CC(C)c1nc(Nc2ccccc2)n(P(=O)(N(C)C)N(C)C)n1 | inactive: 49.7%
52 | CN(C)C(=O)OCCc1n(C)cc[n+]1C | inactive: 36.5%

Row | Structure (SMILES) | activity change, negative = inhibition
53 | COc1ccc(C2=NCC(CBr)S2)cc1 (stereo unspecified) | inactive: 9.09%
54 | CCc1nc2c(n1)c1c(non1O)c1c2no[n+]1[O-] | active: -68.1%
55 | O=[N+]([O-])c1cc([N+](=O)[O-])c(CCNc2ccccc2)c([N+](=O)[O-])c1 | inactive: -25.9%
56 | O=[N+]([O-])c1cccc2n[nH]nc12 | inactive: 74.2%
57 | CC(=O)N1C2C3N(C(C)=O)C1C1N(C(C)=O)C(C(N1C(C)=O)N3C(C)=O)N2C(C)=O | inactive: -4.82%
58 | Oc1ccccc1CNc1ccccn1 | inactive: -23.8%
59 | O=C(NC(Sc1ccncn1)C(Cl)(Cl)Cl)c1ccccc1 (stereo unspecified) | inactive: 75.5%
60 | CC(C)CC(=O)NC(Sc1ccc(Cl)cc1)C(Cl)(Cl)Cl (stereo unspecified) | inactive: 45.5%
61 | Nc1cc(N)c2nonc2c1[N+](=O)[O-] | inactive: 4.86%
62 | CN(C(=O)Cc1ccc(Cl)c(Cl)c1)[C@H]1CCCC[C@H]1N1CCCC1 | inactive: -1.22%
63 | Cc1ccc(N/C(=N/P(=O)(N2CCOCC2)N2CCOCC2)N2CCOCC2)cc1 | inactive: -1.89%
64 | NC(=O)c1cc([N+](=O)[O-])cc([N+](=O)[O-])c1N | inactive: -15.1%
65 | Clc1ccc(Cl)c(NC2=NCC(CBr)S2)c1 (stereo unspecified) | inactive: -1.78%
66 | CN1CCCC(OC(=O)C(c2ccccc2)c2ccccc2)C1 (stereo unspecified) | inactive: 49.3%
67 | COc1ccccc1OP(=O)(Nc1ccc(C)cn1)Oc1ccccc1OC | inactive: -24.9%
68 | Cc1ccc(OP(=O)(Nc2nccs2)Oc2ccc(C)cc2)cc1 | inactive: -18.5%
69 | Nc1cccc2ccc([As](=O)(O)O)cc12 | active: -86.5%
70 | CN(C(=O)Cc1ccccc1)C1CC[C@@]2(CCCO2)C[C@@H]1N1CCCC1 (stereo partly specified) | inactive: -22.1%
71 | CCN(N=Nc1nonc1N)c1nonc1N | inactive: -18.8%
72 | CN(C)P(=O)(N(C)C)n1c(Nc2ccccc2)nnc1-c1ccccc1 | inactive: -0.348%
73 | O=P(Nc1nc2ccc(Cl)cc2s1)(c1ccccc1)c1ccccc1 | inactive: 27.2%
74 | O=C(O)c1ccccc1[As](=O)(O)O | inactive: -30.4%
75 | CC(=O)Nc1ccc([As](=O)(O)O)cc1 | inactive: 4.07%
76 | CCCC1OP(N)(=O)OCC1CC (stereo unspecified) | inactive: 15.2%
77 | CCn1c(=O)n(C2CCN(CC3CCCCCCC3)C[C@H]2CO)c2ccccc21 (stereo partly specified) | inactive: -11.9%
78 | CCOP(=O)(Nc1ccccc1)OCC | inactive: -32.9%

Row | Structure (SMILES) | activity change, negative = inhibition
79 | Cc1cc(SC(NC(=O)c2ccc(F)cc2)C(Cl)(Cl)Cl)ncn1 (stereo unspecified) | inactive: 13.8%
80 | Cc1ccc(NP(=O)(Oc2ccccc2F)Oc2ccccc2F)nc1 | inactive: 21.4%
81 | CN(C(=O)Cc1ccc(Cl)c(Cl)c1)[C@H]1CCCC[C@@H]1N1CCCC1 | inactive: 70.4%
82 | ClCCSc1nnc(-c2cccnc2)o1 | inactive: 17.8%
83 | CC(C)c1ccc(OP(=O)(Nc2ccccn2)Oc2ccccc2F)cc1 (stereo unspecified) | inactive: 0.489%
84 | COC(=O)C1(C)COP(=O)(N2CCCCCC2)OC1 (stereo unspecified) | inactive: 15.5%
85 | O=C(OC1CN2CCC1CC2)c1cccc2[nH]cnc12 (stereo unspecified) | inactive: 56.3%
86 | CCN(CC)C(=S)SC(NC=O)C(Cl)(Cl)Cl (stereo unspecified) | inactive: -7.33%
87 | C[As](=O)(O)c1cccc(C(=O)O)c1 | inactive: -10.9%
88 | COc1cc(C(=O)NCC2(N3CCOCC3)CCCCC2)ccc1OCC(C)C | inactive: -18.2%
89 | O=[N+]([O-])c1ccc(-c2cc([N+](=O)[O-])c(O)c([N+](=O)[O-])c2)cc1 | inactive: -30.3%
90 | [N-]=[N+]=NC1CCCCC1NC(=O)c1cc([N+](=O)[O-])cc([N+](=O)[O-])c1 (stereo unspecified) | inactive: 38.3%
91 | Cc1ccc(OP(=O)(Nc2ccc([N+](=O)[O-])cn2)Oc2ccc(C)cc2)cc1 | inactive: -35.6%
92 | Cc1ccc2nc3c(c(C)c2c1)CC(C(Cl)Cl)S3 (stereo unspecified) | inactive: 32%
93 | O=[N+]([O-])c1cc(Oc2ccc([N+](=O)[O-])cc2C(F)(F)F)cc([N+](=O)[O-])c1 | inactive: -12.5%
94 | COc1ccc(N/C(=N/P(=O)(N2CCOCC2)N2CCOCC2)N2CCOCC2)cc1 | inactive: 23.3%
95 | Cc1c2c(nc3ccccc13)SC(C(Cl)Cl)C2 (stereo unspecified) | inactive: -25.9%
96 | O=C(OC1CN2CCC1CC2)C12CC3CC(CC(C3)C1)C2 (stereo unspecified) | inactive: 5.06%
97 | Cc1cc(=O)[nH]c(N[N+](=O)[O-])n1 | inactive: -37.9%
98 | O=P1(N(CCCl)CCCl)Nc2ccccc2N1 | inactive: 94.2%
99 | O=P1(N(CCCl)CCCl)OCCCN1CCCl (stereo unspecified) | inactive: -4.11%
100 | COc1ccc2nc(NP(=O)(c3ccccc3)c3ccccc3)sc2c1 | inactive: -6.3%
101 | COc1cc(I)ccc1[As](=O)(O)O | active: -61.6%
